## Single amino acid changes in Zika NS2B-NS3 and viral growth

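Libraries of single mutants were passaged as virus pools on Huh-7.5 cells. The effect is the change in frequency of a mutant, normalised to wild type, as a mean of three replicate libraries (two for positions 207-308).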

The scanned region of Zika virus MR766 is shown below (positions 1-308): NS2B is 2-131, NS3 begins at position 132.
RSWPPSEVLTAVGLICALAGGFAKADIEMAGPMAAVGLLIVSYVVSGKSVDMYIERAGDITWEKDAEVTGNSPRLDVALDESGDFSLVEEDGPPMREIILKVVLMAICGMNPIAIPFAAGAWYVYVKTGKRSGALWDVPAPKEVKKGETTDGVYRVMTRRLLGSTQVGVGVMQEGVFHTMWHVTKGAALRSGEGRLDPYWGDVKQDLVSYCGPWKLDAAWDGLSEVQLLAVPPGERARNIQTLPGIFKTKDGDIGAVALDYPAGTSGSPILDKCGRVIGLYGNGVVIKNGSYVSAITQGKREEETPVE

Values are log2 effects on growth: 0 is wild type, lower means poorer growth. Each entry names the wild-type residue, its position and the residue put in its place. Positions 1-103, 104-206 and 207-308 were made and measured as separate libraries. An asterisk is a stop codon; stop codons read about -7, near the floor of the assay. The authors count -1 or higher as tolerated. Position 1 is the last residue of NS2A. Six mutants with high scores were retested singly and none clearly outgrew wild type, so positive values are not proof of better growth.

substitution	log2 growth effect
W3R	-8.47
A11T	-4.66
G13M	-6.00
A19R	-8.18
F22R	-8.01
A25P	-4.90
G31F	-5.73
G31V	-4.34
G31Y	-6.14
V36M	-3.07
G37S	-2.73
Y43W	-0.69
S46A	2.06
D51*	-6.72
W62D	-5.83
W62H	-6.15
K64R	-0.26
E67G	-5.24
V68H	-5.87
V77M	-6.62
S82*	-7.98
S82I	-6.85
V88F	-5.20
V88S	-6.97
G92*	-5.75
M95N	-3.00
E97V	-2.81
V103T	-1.69
I107C	-0.85
I107W	-5.39
F117Q	-5.46
A121C	-1.32
W122A	-6.12
Y125E	-5.23
T128*	-6.71
K130F	-5.91
R131C	-5.31
K146I	-1.61
V153C	-2.54
V153L	0.61
T158A	1.68
V169C	-0.90
M172E	-5.96
T184R	-7.23
K185R	-1.60
S191F	-4.59
E193L	-1.25
E193Q	-0.57
P198A	-7.35
P198N	-7.20
W200R	-8.29
G201Q	-6.48
Q205G	-7.25
D206K	-5.97
D206L	-8.19
V208R	-9.18
V208W	-7.84
L216E	-6.89
A218*	-8.15
D221V	-6.78
Q227H	-7.12
E235R	-3.24
N239S	-1.32
G245M	-5.47
I246C	0.16
K248G	-7.02
G252H	-4.61
D253H	-5.41
D253Y	-5.63
A263L	-6.02
G267*	-7.71
S268F	-4.69
G279R	-6.40
N289L	-6.66
V293A	-5.98
A295H	-4.99
I296M	-4.98
T297V	-5.15
G299Y	-4.94
E302*	-8.07
E303F	-0.83
E304C	-0.54
T305D	0.04
P306T	-2.29

The opening 7 entries, copied out:

| substitution | log2 growth effect |
|---|---|
| W3R | -8.47 |
| A11T | -4.66 |
| G13M | -6.00 |
| A19R | -8.18 |
| F22R | -8.01 |
| A25P | -4.90 |
| G31F | -5.73 |

Reference: Ni et al. 2025, doi:10.1038/s41467-025-63602-z.